Measured values from several laboratories, pooled; numbers as filed in NIAID ChemDB.

All rows: tests on isolated targets

An empty or dashed field is not shown. Neighbouring rows are from separate reports. Percent inhibition refers to the dose given; in toxicity tests it is the harm to the cells. Two numbers with a dash give a range or band. ICn: concentration for n% inhibition.

COc1nc(Nc2ccc3cn[nH]c3c2)nc(NC2CC2)n1 ; tested at: 0.01 µg/mL ; read-out: inhibition ; protein: DNA polymerase ; agent: Hepatitis B virus ; value: 3%
C[C@@H]1CCCC[C@H]1n1c(-c2cccn2C)nc2cc(C(=O)NC3(C(=O)Nc4ccc(/C=C/C(=O)O)cc4)CCCC3)ccc21 ; read-out: IC50 ; protein: NS5B polymerase ; agent: Hepatitis C virus ; value: 0.5–5 µM
CC[C@@H](C=O)NC(=O)[C@@H]1C[C@@H](OC(=O)Nc2ccc([N+](=O)[O-])cc2)CN1C(=O)[C@@H](NC(=O)[C@@H](NC(=O)c1cnccn1)C(C)C)C(C)C ; read-out: Ki ; protein: NS3 protease ; agent: Hepatitis C virus ; value: 1–100 µM
CNC(=O)c1c(-c2ccc(F)cc2)oc2cc(-c3ncon3)c(OC(C)C)cc12 ; read-out: IC50 ; protein: Nonstructural protein 5B ; agent: Hepatitis C virus ; value: ≤0.5 µM
O=C(O)c1cc2nc(-c3ccc(Oc4ccccc4)cc3)cc(-c3cccc(Cl)c3)n2n1 ; read-out: IC50 ; protein: RNA-dependent RNA polymerase ; agent: Hepatitis C virus ; value: 1–10 µM
COc1ccc(-c2cc(Cl)cc(Cl)c2)c(-c2ccc3cc(-c4nc5cc(C(=O)O)ccc5n4C4CCCCC4)ccc3n2)c1 ; tested at: 100 µM ; read-out: inhibition ; protein: NS5B polymerase ; agent: Hepatitis C virus ; value: 101%
O=C(O)/C=C/c1ccc(NC(=O)C(CC2CCCCC2)NC(=O)c2ccc3c(c2)nc(-c2ccoc2)n3C2CCCCC2)cc1 ; read-out: IC50 ; protein: NS5B polymerase ; agent: Hepatitis C virus ; value: 0.5–5 µM
CC(=O)c1ccc(-c2cc(N(C)C(=O)c3ccc(C)cc3)c(C(=O)O)s2)s1 ; read-out: IC50 ; protein: NS3 ATPase ; agent: Hepatitis C virus ; value: <5 µM
NC(C(=O)Nc1ccsc1-c1nc(C(=O)O)c(O)c(=O)[nH]1)c1cc(F)ccc1F ; read-out: IC50 ; protein: HCV polymerase ; agent: Hepatitis C virus ; value: <25 µM
COc1nc(NCCCN2CCCC2=O)nc(Nc2ccc3[nH]ncc3c2)n1 ; tested at: 0.1 µg/mL ; read-out: inhibition ; protein: DNA polymerase ; agent: Hepatitis B virus ; value: 27%
O=C(Nc1cscc1-c1nc(C(=O)O)c(O)c(=O)[nH]1)NC(CO)c1ccccc1 ; read-out: IC50 ; protein: HCV polymerase ; agent: Hepatitis C virus ; value: <25 µM
C[C@H]1CCC[C@H](C)C1n1c(-c2cccn2C)nc2cc(C(=O)NC3(C(=O)Nc4ccc(/C=C/C(=O)O)cc4)CCCC3)ccc21 ; read-out: IC50 ; protein: NS5B polymerase ; agent: Hepatitis C virus ; value: 0.5–5 µM
CNC(=O)c1c(-c2ccc(F)cc2)oc2cc(C(C)(C)N)c(OC(C)C)cc12 ; read-out: IC50 ; protein: Nonstructural protein 5B ; agent: Hepatitis C virus ; value: ≤0.5 µM
COc1nc(NCCO)nc(Nc2ccc3cn[nH]c3c2)n1 ; tested at: 1 µg/mL ; read-out: inhibition ; protein: DNA polymerase ; agent: Hepatitis B virus ; value: 73%
O=C(O)CC(NC(=O)c1ccc2c(c1)nc(-c1ccc3nc(-c4ccccc4)cnc3c1)n2C1CCCCC1)C(=O)O ; tested at: 100 µM ; read-out: inhibition ; protein: NS5B polymerase ; agent: Hepatitis C virus ; value: 97.02%
CNC(=O)CN1CCN(c2nc(Nc3ccc4cn[nH]c4c3)nc(OC)n2)CC1 ; tested at: 1 µg/mL ; read-out: inhibition ; protein: Nonstructural protein 5B ; agent: Hepatitis C virus ; value: 11%
O=C(NC(Cc1c[nH]c2ccccc12)C(=O)O)c1cnn2c(C3CCCCC3)c(-c3ccoc3)cnc12 ; read-out: IC50 ; protein: RNA-dependent RNA polymerase ; agent: Hepatitis C virus ; value: <1 µM
COc1ccc(COc2c(C(=O)O)nc(-c3sccc3NC(=O)CCC(=O)NO)[nH]c2=O)cc1 ; read-out: IC50 ; protein: HCV polymerase ; agent: Hepatitis C virus ; value: <50 µM
CNC(=O)c1c(-c2ccc(F)cc2)oc2cc(N(CCO)S(C)(=O)=O)c(OC)cc12 ; read-out: IC50 ; protein: Nonstructural protein 5B ; agent: Hepatitis C virus ; value: ≤0.5 µM
O=C(O)c1ccc2c(c1)nc(-c1ccc3nc(-c4cc(OCCCN5CCCC5)ccc4-c4ccccc4)ccc3c1)n2C1CCCCC1 ; tested at: 100 µM ; read-out: inhibition ; protein: NS5B polymerase ; agent: Hepatitis C virus ; value: 96.65%
c1ccc(Oc2ccc(-c3cnc4c(-c5nn[nH]n5)cnn4c3-c3ccccc3)cc2)cc1 ; read-out: IC50 ; protein: RNA-dependent RNA polymerase ; agent: Hepatitis C virus ; value: >10 µM
CCc1ccc(S(=O)(=O)Nc2ccccc2-c2nc(C(=O)O)c(O)c(=O)[nH]2)cc1 ; read-out: IC50 ; protein: HCV polymerase ; agent: Hepatitis C virus ; value: <100 µM
O=C(O)c1sc(-c2ccccc2)cc1NS(=O)(=O)c1cccc([N+](=O)[O-])c1 ; read-out: IC50 ; protein: NS3 ATPase ; agent: Hepatitis C virus ; value: <5 µM
COc1cccc(O)c1-c1ccc2cc(-c3nc4cc(C(=O)O)ccc4n3C3CCCCC3)ccc2n1 ; tested at: 100 µM ; read-out: inhibition ; protein: NS5B polymerase ; agent: Hepatitis C virus ; value: 102.4%
COC(CC(=O)O)c1ccc(NC(=O)C2(NC(=O)c3ccc4c(c3)nc(-c3ccoc3)n4C3CCCCC3)CCCC2)cc1 ; read-out: IC50 ; protein: NS5B polymerase ; agent: Hepatitis C virus ; value: 0.5–5 µM
CCOC(=O)C1CCN(c2nc(Nc3ccc4[nH]ncc4c3)nc(OC)n2)CC1 ; tested at: 0.1 µg/mL ; read-out: inhibition ; protein: Nonstructural protein 5B ; agent: Hepatitis C virus ; value: 0%
COC(=O)c1nc(-c2sccc2NC(=O)c2ccccc2-c2ccccc2C(=O)O)[nH]c(=O)c1O ; read-out: IC50 ; protein: HCV polymerase ; agent: Hepatitis C virus ; value: <50 µM
CN(C(=O)c1ccc(C(F)(F)F)c(F)c1F)c1cc(-c2ccccc2)sc1C(=O)O ; read-out: IC50 ; protein: NS3 ATPase ; agent: Hepatitis C virus ; value: 5–20 µM
NC(=O)c1cc(-c2ccc3cc(-c4nc5cc(C(=O)O)ccc5n4C4CCCCC4)ccc3n2)ccc1O ; tested at: 100 µM ; read-out: inhibition ; protein: NS5B polymerase ; agent: Hepatitis C virus ; value: 98.32%
O=C(NC1(C(=O)Nc2ccc3[nH]c(=S)sc3c2)CCCC1)c1ccc2c(c1)nc(-c1ccoc1)n2C1CCCCC1 ; read-out: IC50 ; protein: NS5B polymerase ; agent: Hepatitis C virus ; value: 0.5–5 µM
CC[C@H](NC(=O)[C@H](CC(C)C)NC(=O)[C@@H](NC(=O)[C@@H](NC(=O)[C@H](CC(=O)O)CC(=O)[C@H](CCC(=O)O)NC(C)=O)C(C)C)C(C)C)C(=O)C(=O)NCC1CCCO1 ; read-out: Ki ; protein: NS3 protease ; agent: Hepatitis C virus ; value: <1 µM
O=C(O)c1cc2nccc(-c3ccccc3-c3ccccc3Oc3ccccc3)n2n1 ; read-out: IC50 ; protein: RNA-dependent RNA polymerase ; agent: Hepatitis C virus ; value: >10 µM
CC[C@@H](C=O)NC(=O)[C@@H]1C[C@@H](OCc2ccccc2)CN1C(=O)[C@@H](NC(=O)c1c2c(nc3ccccc13)CCCC2)C(C)C ; read-out: Ki ; protein: NS3 protease ; agent: Hepatitis C virus ; value: 1–100 µM
CN(Cc1ccccc1)c1cc(-c2ccc(Cl)cc2)nc2cc(C(=O)O)nn12 ; read-out: IC50 ; protein: RNA-dependent RNA polymerase ; agent: Hepatitis C virus ; value: >10 µM
CCC(Oc1ccccc1)C(=O)N[C@H](C(=O)N1C[C@H](OCc2ccccc2)C[C@H]1C(=O)N[C@H](C=O)CC)C(C)C ; read-out: Ki ; protein: NS3 protease ; agent: Hepatitis C virus ; value: >100 µM
O=C(CC(c1ccccc1)c1ccccc1)Nc1cccc(-c2nc(C(=O)O)c(O)c(=O)[nH]2)c1 ; read-out: IC50 ; protein: HCV polymerase ; agent: Hepatitis C virus ; value: <100 µM
O=C(O)/C=C/c1ccc(NC(=O)C2(NC(=O)c3ccc4c(c3)nc(-c3cccc5c3OCO5)n4C3CCC3)CCCC2)cc1 ; read-out: IC50 ; protein: NS5B polymerase ; agent: Hepatitis C virus ; value: 0.5–5 µM
CC[C@@H](C=O)NC(=O)[C@H](CC(C)C)NC(=O)[C@@H](NC(=O)[C@@H](NC(=O)Cc1ccccn1)C(C)C)C(C)C ; read-out: Ki ; protein: NS3 protease ; agent: Hepatitis C virus ; value: 1–100 µM
O=C(O)/C=C/c1ccc(NC(=O)C2(NC(=O)c3ccc4c(c3)nc(-c3ccccc3)n4C3CCC3)CCCC2)cc1 ; read-out: IC50 ; protein: NS5B polymerase ; agent: Hepatitis C virus ; value: 0.5–5 µM
O=C(O)c1sc(-c2ccccc2)cc1NS(=O)(=O)c1cc(Cl)c(O)c(Cl)c1 ; read-out: IC50 ; protein: NS3 ATPase ; agent: Hepatitis C virus ; value: 5–20 µM
Cc1c(OCc2ccccc2)ccc(-c2ccc3cc(-c4nc5cc(C(=O)O)ccc5n4C4CCCCC4)ccc3n2)c1O ; tested at: 33 µM ; read-out: inhibition ; protein: NS5B polymerase ; agent: Hepatitis C virus ; value: 98.24%
CNC(=O)c1c(-c2ccc(F)cc2F)oc2cc(-c3c(C)noc3C)c(OC)cc12 ; read-out: IC50 ; protein: Nonstructural protein 5B ; agent: Hepatitis C virus ; value: ≤0.5 µM
O=C(O)c1cnn2c(C3CCCCC3)c(-c3ccc4c(c3)OCO4)cnc12 ; read-out: IC50 ; protein: RNA-dependent RNA polymerase ; agent: Hepatitis C virus ; value: 1–10 µM
COCCOc1ccc(-c2ccc(Cl)cc2)c(-c2ccc3cc(-c4nc5cc(C(=O)O)ccc5n4C4CCCCC4)ccc3n2)c1 ; tested at: 100 µM ; read-out: inhibition ; protein: NS5B polymerase ; agent: Hepatitis C virus ; value: 95.91%
O=C(O)c1sc(-c2ccccc2)cc1N(C(=O)c1ccc(Cl)cc1Cl)C1CC1 ; read-out: IC50 ; protein: NS3 ATPase ; agent: Hepatitis C virus ; value: <5 µM
O=C(O)/C=C/c1ccc(NC(=O)C2(NC(=O)c3ccc4c(c3)nc(-c3cccc5c3OCO5)n4C3CCCC3)CCCC2)cc1 ; read-out: IC50 ; protein: NS5B polymerase ; agent: Hepatitis C virus ; value: 0.5–5 µM
CCC(=O)N(Cc1ccccc1)c1cc(-c2ccccc2)sc1C(=O)O ; read-out: IC50 ; protein: NS3 ATPase ; agent: Hepatitis C virus ; value: <5 µM
CS(=O)(=O)c1ccc(-c2ccc(-c3nc4cc(C(=O)O)[nH]n4c(=O)c3C3CCCCC3)cc2)cc1 ; read-out: IC50 ; protein: RNA-dependent RNA polymerase ; agent: Hepatitis C virus ; value: 1–10 µM
O=C(O)c1nc(-c2ccccc2NS(=O)(=O)c2ccc(Br)cc2)[nH]c(=O)c1O ; read-out: IC50 ; protein: HCV polymerase ; agent: Hepatitis C virus ; value: <100 µM
O=C(O)c1ccc2c(c1)nc(-c1ccc3nc(-c4cc(OCC(=O)N5CCCC5)ccc4-c4ccccc4)ccc3c1)n2C1CCCCC1 ; tested at: 33 µM ; read-out: inhibition ; protein: NS5B polymerase ; agent: Hepatitis C virus ; value: 97.56%
O=C(O)c1cc2nc(-c3cccc(Oc4ccccc4)c3)c(-c3ccccc3)cn2n1 ; read-out: IC50 ; protein: RNA-dependent RNA polymerase ; agent: Hepatitis C virus ; value: >10 µM
O=C(O)c1sc(-c2ccccc2)cc1NS(=O)(=O)c1ccc(Cl)c(Cl)c1Cl ; read-out: IC50 ; protein: NS3 ATPase ; agent: Hepatitis C virus ; value: <5 µM

A second listing of 5 rows from above:

structure,tested at,read-out,protein,agent,value
O=C(O)c1ccc2c(c1)nc(-c1ccc3nc(-c4cc(OCCCN5CCCC5)ccc4-c4ccccc4)ccc3c1)n2C1CCCCC1,100 µM,inhibition,NS5B polymerase,Hepatitis C virus,96.65%
CC(=O)c1ccc(-c2cc(N(C)C(=O)c3ccc(C)cc3)c(C(=O)O)s2)s1,-,IC50,NS3 ATPase,Hepatitis C virus,<5 µM
O=C(O)/C=C/c1ccc(NC(=O)C2(NC(=O)c3ccc4c(c3)nc(-c3ccccc3)n4C3CCC3)CCCC2)cc1,-,IC50,NS5B polymerase,Hepatitis C virus,0.5–5 µM
O=C(O)c1cc2nccc(-c3ccccc3-c3ccccc3Oc3ccccc3)n2n1,-,IC50,RNA-dependent RNA polymerase,Hepatitis C virus,>10 µM
O=C(NC(Cc1c[nH]c2ccccc12)C(=O)O)c1cnn2c(C3CCCCC3)c(-c3ccoc3)cnc12,-,IC50,RNA-dependent RNA polymerase,Hepatitis C virus,<1 µM